The data set has as its system influenza virus. As to conditions: in vivo, po.

Consider “Lignosulfonic acid sodium salt [sample 5]”, for which the side effects entry was “not seen”.

The values are drawn from patent US20030055007A1, “Antimicrobial agents” (priority 2001, published 2003).
